Experimental data: PubChem BioAssay AID1259414 (Drosophila RNAi Screening Center, 2018)
Test: 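Genome-wide screen for host control of endosymbiont load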 (primary screen). Cells: Drosophila JW18 cells infected with Wolbachia. Knock-down reagent: long dsRNA against Drosophila genes, 0.25 µg dsRNA per well of a 384-well plate. Time to read-out: 5 days. Treatment: cells persistently infected with Wolbachia before knock-down; no added drug. Measurement: 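Imaged fluorescence in situ signal for Wolbachia 23S rRNA per DAPI-counted host cell, given as a robust z-score within each plate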. Reading the numbers: Wolbachia per cell robust z: higher = more Wolbachia per host cell than the plate typical. Active means: 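Active if absolute robust z reaches 1.5 in two or more of three replicates, leaving out multi- or no-target dsRNAs, genes unexpressed in JW18 and A1 wells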.
The deposit covers about 24,000 reagents; shown is an unselected part of those with a known target gene and a result. In the full data, about 1,210 (5%) got an active call. 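Inactive calls also include excluded dsRNAs with several or no targets, genes unexpressed in JW18, and well A1, regardless of score.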

Against bic [DRSC07584], the values are Wolbachia per cell robust z, rep 1 = -1.65; Wolbachia per cell robust z, rep 2 = 0.00777; Wolbachia per cell robust z, rep 3 = -1.12; inactive.
Against bic [DRSC25656] the deposit lists Wolbachia per cell robust z, rep 1 = 0.579; Wolbachia per cell robust z, rep 2 = -10.2; Wolbachia per cell robust z, rep 3 = 0.485; inactive.
rdgBbeta [DRSC07672] gave Wolbachia per cell robust z, rep 1 = -4.05; Wolbachia per cell robust z, rep 2 = -0.307; Wolbachia per cell robust z, rep 3 = 0.266; inactive.
After knock-down of awd [DRSC16906], the record shows Wolbachia per cell robust z, rep 1 = -4.84; Wolbachia per cell robust z, rep 2 = -1.39; Wolbachia per cell robust z, rep 3 = -0.499; inactive.
awd [DRSC40728] showed Wolbachia per cell robust z, rep 1 = -0.409; Wolbachia per cell robust z, rep 2 = -0.17; Wolbachia per cell robust z, rep 3 = 0.749; inactive.
Depletion of mRRF1 [DRSC10421] came out at: Wolbachia per cell robust z, rep 1 = 0.0133; Wolbachia per cell robust z, rep 2 = -0.176; Wolbachia per cell robust z, rep 3 = -0.157; inactive.
Depletion of Phae1 [DRSC02554] resulted in: Wolbachia per cell robust z, rep 1 = 0.431; Wolbachia per cell robust z, rep 2 = -1.19; Wolbachia per cell robust z, rep 3 = 0.118; inactive.
CG10237 [DRSC02029] gave Wolbachia per cell robust z, rep 1 = -1.21; Wolbachia per cell robust z, rep 2 = -1.27; Wolbachia per cell robust z, rep 3 = -0.792; inactive.
PpY-55A [DRSC07513] gave Wolbachia per cell robust z, rep 1 = 1.19; Wolbachia per cell robust z, rep 2 = 0.675; Wolbachia per cell robust z, rep 3 = 0.393; inactive.
PpY-55A [DRSC23328] scored Wolbachia per cell robust z, rep 1 = 0.66; Wolbachia per cell robust z, rep 2 = 0.0974; Wolbachia per cell robust z, rep 3 = 0.0385; inactive.
For PpY-55A [DRSC26547], the entry reads Wolbachia per cell robust z, rep 1 = -1.86; Wolbachia per cell robust z, rep 2 = -0.517; Wolbachia per cell robust z, rep 3 = -0.294; inactive.
Against I-2 [DRSC11194], the values are Wolbachia per cell robust z, rep 1 = 0.989; Wolbachia per cell robust z, rep 2 = 0.253; Wolbachia per cell robust z, rep 3 = 2.14; inactive.
Knock-down of I-2 [DRSC23300] came out at: Wolbachia per cell robust z, rep 1 = -2.87; Wolbachia per cell robust z, rep 2 = 0.299; Wolbachia per cell robust z, rep 3 = -0.554; inactive.
